Results of unrelated studies side by side (data: NIAID ChemDB).

Common to all: whole-cell or culture tests; agent: Mycobacterium tuberculosis

MIC50, MIC90 and the like: level of inhibition, or share of isolates inhibited.

smiles,mutations,read-out,dose,strain,setting,cells,read by,value
O=C(O)c1cc(-c2ccccc2O)nc2cc(S(=O)(=O)[O-])ccc12.[Na+],,MIC,,H37Rv,,,,>100 µg/mL
FC(F)(F)c1ccc(CNCCNCCCCc2ccccc2)cc1,,MIC,,,,,,25 µM
CCCCCCCCCCCNCCNC(C)Cc1ccc(Cl)cc1,,MIC,,,,,,50 µM
Cc1ccc(-n2c(=O)oc3ccc(F)cc3c2=O)cc1,,MIC,,CNCTC MY331/88,,,,16 µM
NC(=O)c1cnccn1,,MIC,,Isolate 9811 monodrug-resistant,,,,>300 µg/mL
CCCC(O)(CCC)C(C)O,,MIC,,H37Rv,,,,>100 µg/mL
C/C(=N\NC(=O)C(N)=O)c1c(O)cc(C)oc1=O,,MIC bound,,H37Rv,,,BACTEC,>12.5 µg/mL
O=C1c2ccccc2OC(c2cccc(Br)c2)C1O,,inhibition,12.5 µg/mL,,,,,60%
CCCCN(C)CCNc1cc(C)nc(Nc2nc3ccc(Cl)cc3[nH]2)n1,,MIC,,H37Rv,,VERO,,0.39 µg/mL
CCOC(=O)CCCCCBr,,MIC,,H37Rv,,,,>100 µg/mL
NCC[C@H](O)C(=O)N[C@@H]1C[C@H](N)[C@@H](O[C@H]2O[C@H](CN)[C@@H](O)[C@H](O)[C@H]2O)[C@H](O)[C@H]1O[C@H]1O[C@H](CO)[C@@H](O)[C@H](N)[C@H]1O,,MIC,,TN758 (P),,,,8 µg/mL
CC1=NN(C(=O)c2ccncc2)C(=O)C1N=Nc1ccc(F)cc1,,MIC bound,,H37Rv,,,BACTEC,>12.5 µg/mL
O=C(NNCc1ccccc1F)c1ccncc1,,MBC,,Rifampicin-resistant,,,,0.39 µg/mL
CC1=NN(c2ccc(S(=O)(=O)O)cc2)C(=O)C1N=Nc1ccc(-c2ccc(N=Nc3ccc(OS(=O)(=O)c4ccc(C)cc4)cc3)c(S(=O)(=O)O)c2)cc1,,MIC bound,,H37Rv,,,BACTEC,>12.8 µg/mL
CCc1nc2ccccc2n1CCCCSc1nnnn1C,,MIC99,,H37Rv,,,turbidity / fluorescence,>20 µM
CC(=O)N=C1C=C(NC(C)=O)C(=O)c2ccccc21,,inhibition,12.5 µg/mL,H37Rv,,,BACTEC,99%
O=C(CS)Nc1ccc(NC(=O)CC(=O)c2ccccc2)cc1,,MIC,,H37Rv,,,,>100 µg/mL
O=C1CC(c2cccc(Cl)c2)Oc2ccccc21,,inhibition,12.5 µg/mL,H37Rv,,,,0%
CCOC(=O)c1c(NC(=O)c2ccccc2)sc2c1CCC2,,MIC bound,,H37Rv,,,resazurin,>6.25 µg/mL
CC(C)c1ccc2c(c1)CC[C@H]1[C@](C)(CNCCNCCO)CCC[C@]21C,,MIC,,,,,,25 µM
O=S(CCO)CCO,,MIC,,H37Rv,,,,>100 µg/mL
CCc1nc2ccc(C)cc2n1CCCCSc1ccc(OC)cc1,Rv1339 V90M,MIC90,,H37Rv,,,turbidity / fluorescence,10 µM
O=C(Nc1ccc(Cl)cc1)Nc1nnc2nc(C(C(=O)/C=C/c3ccccc3)c3nc4nnc(NC(=O)Nc5ccc(Cl)cc5)n4[nH]c3=O)c(=O)[nH]n12,,MIC bound,,H37Rv,,,BACTEC,>12.5 µg/mL
O=C(N/N=C/c1cccc(F)c1)c1ccncc1,,MIC,,H37Rv (isoniazid-resistant),,,,>128 µg/mL
CCCCCCCC(=O)N1C2CC3CCC2(CS1(=O)=O)C3(C)C,,MIC bound,,H37Rv,,,BACTEC,>12.5 µg/mL
CC(C)=CCC/C(C)=C/CNCCN[C@H]1C[C@H]2CC[C@]1(C)C2(C)C,,MIC,,,,,,12.5 µM
CCCCCc1cc(OC)c2ccccc2n1,,MIC,,MT4,,,,42 µg/mL
C=CC(N)=O,,MIC,,H37Rv,,,,100 µg/mL
COc1ccc(Cc2cc(N=NC(N)=O)c(OC)cc2O)cc1,,inhibition,12.5 µg/mL,H37Rv,,,BACTEC,59%
CCOC(=O)c1cc(C)n(-c2cc(C(=O)OC)ccc2OC)c1C,,MIC,,H37Rv,,,,50 µg/mL
CC(CNCC(c1ccccc1)c1ccccc1)NC1CCCCCCC1,,MIC,,,,,,50 µM
C/C(=N\NC(=O)c1ccncc1)c1ccccc1,,EC90,,Erdman,inside macrophages,Macrophages,colony count,0.074 µg/mL
CC(=O)c1c(O)c(C)c(O)c2c1OC1=CC(=O)C(C(C)=O)C(=O)[C@@]12C,,inhibition,128 µg/mL,H37Rv,,,BACTEC,100%
CC(C)=CCC/C(C)=C/CNCCNC1CCCC(C)C1C,,MIC,,,,,,25 µM
O=C1CC(C(F)(F)F)=NN1,,MIC,,H37Rv,,,,>100 µg/mL
CCc1nc2ccc(C)cc2n1CCCCSc1ccc(Cl)cc1,Rv1339 V90M,MIC90,,H37Rv,,,turbidity / fluorescence,12 µM
CCCCC(CC)CN1CN(CC(CC)CCCC)CC(C)(NCCNC2CCCCCCC2)C1,,MIC,,,,,,12.5 µM
CC(=O)NC[C@H]1CN(c2ccc(N3CCOCC3)c(F)c2)C(=O)O1,,MIC,,7S,,,,0.5 µg/mL
c1ccc(Nc2nc(Nc3ccccc3)n(-c3ccccc3)n2)cc1,,MIC,,H37Rv,,,,>100 µg/mL
O=C1N(c2ccccc2)C(=Nc2ccccc2)C(=Nc2ccccc2)N1c1ccccc1,,inhibition,12.5 µg/mL,H37Rv,,,BACTEC,18%
Nc1ccc(N)c2c1oc1ccccc12,,MIC,,H37Rv,,,,6.25 µg/mL
CO[C@H]1/C=C/O[C@@]2(C)Oc3c(C)c(O)c4c(=O)c(c5oc6cc(N7CCN(CC(C)C)CC7)cc(=O)c6nc5c4c3=C2O)NC(=O)/C(C)=C\C=C\[C@H](C)[C@H](O)[C@@H](C)[C@@H](O)[C@@H](C)[C@H](OC(C)=O)[C@@H]1C,,MBC,,35 (rifampin-resistant),,,,0.1 µg/mL
Clc1ccc(CCNCCNC2CCc3ccccc32)c(Cl)c1,,MIC,,,,,,50 µM
O=c1oc2ccc(F)cc2c(=O)n1-c1ccc(F)cc1,,MIC,,CNCTC MY331/88,,,,31 µM
COc1ccc(C(=O)/C=C/c2ccco2)c(O)c1,,inhibition,12.5 µg/mL,,,,,3%
CC(NNC(=O)c1ccncc1)c1ccc(Cl)c(Cl)c1,,MIC,,Erdman,,,,3.13 µg/mL
COc1ccc(CCNCCNC(c2ccccc2)c2ccccc2)cc1OC,,MIC,,,,,,50 µM
O=c1oc2ccccc2c(=O)n1-c1cccc(Cl)c1,,MIC,,CNCTC MY331/88,,,,31 µM
O=C(O)c1cc(=O)[nH]c(=S)[nH]1,,inhibition,12.5 µg/mL,H37Rv,,,BACTEC,0%
CC(O)CO,,MIC,,H37Rv,,,,>100 µg/mL
c1ccc(CNCCN[C@H]2C[C@@H]3CC[C@H]2C3)cc1,,MIC,,,,,,50 µM
O=C(c1ccccc1)c1ccccc1,,MIC,,H37Rv,,,,100 µg/mL
COc1cc(OC)c2c(c1)OC(c1ccc(O)cc1)CC2=O,,inhibition,12.5 µg/mL,,,,,0%
CC(NNC(=O)c1ccncc1)c1ccc(F)cc1,,MIC,,Ethionamide-resistant,,,,>50 µg/mL
Nc1cccc(C(=O)Nc2ccc3c(O)c(N=Nc4ccc(N=Nc5ccc(S(=O)(=O)O)cc5)cc4)c(S(=O)(=O)O)cc3c2)c1,,MIC bound,,H37Rv,,,BACTEC,>12.5 µg/mL
O=[N+]([O-])c1cccc(-c2ccccn2)c1,,MIC,,H37Rv,,,,>100 µg/mL
CC(C)=CCC/C(C)=C/CNCCNCCc1cccs1,,MIC,,,,,,50 µM
C/C(=N\NC(=O)c1ccncc1)c1ccccc1F,,MBC,,Isoniazid-resistant,,,,>6.25 µg/mL
O=C1CCCN1CCCNCCNCCCCc1ccccc1,,MIC,,,,,,25 µM
CCCCCNCCNC[C@]1(C)CCC[C@]2(C)c3ccc(C(C)C)cc3CC[C@@H]12,,MIC,,,,,,50 µM
CN[C@@H]1[C@H](O[C@H]2[C@H](O[C@H]3[C@H](O)[C@@H](O)[C@H](N=C(N)N)[C@@H](O)[C@@H]3N=C(N)N)O[C@@H](C)[C@]2(O)C=O)O[C@@H](CO)[C@H](O)[C@H]1O,,MIC,,101596,,,,≥2 µg/mL
COc1ccc2[nH]c3c(C)c4ccn5c(=O)c6ccccc6cc5c4c(C)c3c2c1,,MIC bound,,H37Rv,,,BACTEC,>12.5 µg/mL
CO[C@H]1/C=C/O[C@@]2(C)Oc3c(C)c(O)c4c(O)c(c(/C=N/N5CCN(C6CCCC6)CC5)c(O)c4c3C2=O)NC(=O)/C(C)=C\C=C\[C@H](C)[C@H](O)[C@@H](C)[C@@H](O)[C@@H](C)[C@H](O)[C@@H]1C,,MIC,,Isolate 900241 drug-susceptible,,,,0.25 µg/mL
CC(Cc1c[nH]c2ccccc12)NCCNCC(c1ccccc1)c1ccccc1,,MIC,,,,,,6.25 µM
O=C1c2ccc(O)cc2C(=O)c2c1ccc(O)c2O,,inhibition,12.5 µg/mL,H37Rv,,,BACTEC,-19%
O=c1oc2ccc(Br)cc2c(=O)n1-c1cccc(F)c1,,MIC,,CNCTC MY331/88,,,,16 µM
Cl.Nc1ccc(C(=O)NCCN2CCOCC2)c2ccccc12,,MIC,,H37Rv,,,,>100 µg/mL
CO[C@H]1/C=C/O[C@@]2(C)Oc3c(C)c(O)c4c(O)c(c5c(c4c3C2=O)NC2(CCN(CC(C)C)CC2)N=5)=NC(=O)/C(C)=C\C=C\[C@H](C)[C@H](O)[C@@H](C)[C@@H](O)[C@@H](C)[C@H](OC(C)=O)[C@@H]1C,,MIC,,Strain 72,,,,1 µg/mL
CO[C@H]1/C=C/O[C@@]2(C)Oc3c(C)c(O)c4c(O)c(c(/C=N/N5CCN(C)CC5)c(O)c4c3C2=O)NC(=O)/C(C)=C\C=C\[C@H](C)[C@H](O)[C@@H](C)[C@@H](O)[C@@H](C)[C@H](OC(C)=O)[C@@H]1C,,MIC,,84396,,,,≥2 µg/mL
NCCCn1[nH]c(=O)c2cnccc2c1=O,,inhibition,12.5 µg/mL,H37Rv,,,BACTEC,0%
CCCCCC1=NCCN1,,MIC,,H37Rv,,,,>100 µg/mL
COc1ccc(CNCCN[C@@H](C)C2CCCCC2)cc1OC,,MIC,,,,,,50 µM
CCc1nc2ccccc2n1CCCCNc1ccc(-c2ccccn2)cc1,Rv1339 V90M,fold resistance,,H37Rv,,,turbidity / fluorescence,12
NNC(=O)Cc1c[nH]c2ccccc12,,MIC,,H37Rv,,,BACTEC,≥12.5 µg/mL
CCCCC(CC)CN1CN(CC(CC)CCCC)CC(C)(NCCNCc2cccc(F)c2)C1,,MIC,,,,,,50 µM
CCC(=O)OC(CC)C(CC(C)N(C)C)(c1ccccc1)c1ccccc1.Cl,,MIC,,H37Rv,,,,>100 µg/mL
COc1cc(C(=O)C/C(CCC(=O)Nc2ccc(Cl)cc2C)=N/NC(=O)C(N)=O)ccc1O,,MIC bound,,H37Rv,,,BACTEC,>12.5 µg/mL
COc1ccc(CCC2CCc3ccccc3N2C)cc1OC,,MIC,,MT2,,,,>322 µg/mL
CC(CNCCNCCc1ccc(F)cc1)c1ccccc1,,MIC,,,,,,50 µM
CCN(CC)CC(=O)c1ccc(O)c(O)c1.Cl,,MIC,,H37Rv,,,,>100 µg/mL
CN(C)[C@@H]1C(=O)C(C(=O)NCNC2(C(=O)[O-])CCCC2)=C(O)[C@@]2(O)C(=O)C3=C(O)c4c(O)cccc4[C@@](C)(O)[C@H]3C[C@@H]12.[Na+],,MIC bound,,H37Rv,,,BACTEC,>12.5 µg/mL
Nc1ccc(Cl)c(Cl)c1,,MIC,,H37Rv,,,,>100 µg/mL
CO[C@H]1/C=C/O[C@@]2(C)Oc3c(C)c(O)c4c(O)c(c(/C=N/N5CCN(C/C=C/c6ccccc6)CC5)c(O)c4c3C2=O)NC(=O)/C(C)=C\C=C\[C@H](C)[C@H](O)[C@@H](C)[C@@H](O)[C@@H](C)[C@H](OC(C)=O)[C@@H]1C,,MIC,,2831 (rifampin-sensitive),,,,0.05 µg/mL
c1ccc(CSc2ccccc2)cc1,,MIC,,H37Rv,,,,>100 µg/mL
O=C(CCN1CCC2CCC(C2)C1)c1ccc([N+](=O)[O-])o1,,MIC bound,,H37Rv,,,resazurin,>6.25 µg/mL
C[C@H]1COc2c(N3CCN(C)CC3)c(F)cc3c(=O)c(C(=O)O)cn1c23,,MIC,,2R,,,,0.5 µg/mL
c1cnc2cc3oc4ccccc4c3cc2c1,,MIC,,H37Rv,,,,>100 µg/mL

8 of the rows above, restated:

smiles	mutations	read-out	dose	strain	setting	cells	read by	value
Cc1ccc(-n2c(=O)oc3ccc(F)cc3c2=O)cc1		MIC		CNCTC MY331/88				16 µM
CC1=NN(c2ccc(S(=O)(=O)O)cc2)C(=O)C1N=Nc1ccc(-c2ccc(N=Nc3ccc(OS(=O)(=O)c4ccc(C)cc4)cc3)c(S(=O)(=O)O)c2)cc1		MIC bound		H37Rv			BACTEC	>12.8 µg/mL
FC(F)(F)c1ccc(CNCCNCCCCc2ccccc2)cc1		MIC						25 µM
O=S(CCO)CCO		MIC		H37Rv				>100 µg/mL
CO[C@H]1/C=C/O[C@@]2(C)Oc3c(C)c(O)c4c(O)c(c(/C=N/N5CCN(C)CC5)c(O)c4c3C2=O)NC(=O)/C(C)=C\C=C\[C@H](C)[C@H](O)[C@@H](C)[C@@H](O)[C@@H](C)[C@H](OC(C)=O)[C@@H]1C		MIC		84396				≥2 µg/mL
O=C(c1ccccc1)c1ccccc1		MIC		H37Rv				100 µg/mL
CC(C)=CCC/C(C)=C/CNCCN[C@H]1C[C@H]2CC[C@]1(C)C2(C)C		MIC						12.5 µM
O=C1CC(c2cccc(Cl)c2)Oc2ccccc21		inhibition	12.5 µg/mL	H37Rv				0%

Fold resistance has wild type as its base. Percent inhibition refers to the dose given; in toxicity tests it is the harm to the cells. Conditions beyond the fields shown may differ between rows. ECn is the concentration giving n% inhibition of infection, replication or growth. MIC bound: limit read from a one-dose screen. An empty or dashed field is not shown.